# Data as given in PubChem BioAssay AID504761 (Drosophila RNAi Screening Center, 2011)
# Assay: 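Genome-wide fly cell screen for genes dengue virus requires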 (primary screen)
# Cell system: D.Mel-2 cells from Drosophila
# Knock-down reagent: long dsRNA against Drosophila genes
# Challenge: infection with dengue virus type 2; dose and infection time not stated
# Detection: 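Per well on two replicate plates, imaging gave the percent of cells positive for viral envelope protein, ranked by infection, and a nuclear count of cells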
# Scale: infection score: higher = more virus-infected cells; cell count: higher = more cells in the well
# Active means: 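Low infection ranks in the two replicates (chance level up to 0.065) followed by a retest with a 1.5-fold or larger significant decrease, p below 0.05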
# Calls: active = confirmed: knock-down lowers infection; inactive = not picked or not confirmed
# In all, the deposit lists about 22,000 reagents; shown is a random part of those with a known target gene and a result. Of all reagents, 116 (0.52%) got an active call. 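Calls depend on retest data that are not deposited; infection was ranked per plate without normalising between plates; the unit of the infection score is not given.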 Raw values vary from plate to plate and are shown uncorrected. A plus sign joins genes that one reagent is predicted to hit. No sequences are given here. The record does not give: the amount of reagent, the time to read-out.
gene,amplicon,"infection score, replicate 1","infection score, replicate 2","cell count, replicate 1","cell count, replicate 2",outcome
S-Lap4 (GeneID 326188),DRSC10957,2.36,2.42,6058,5668,inactive
S-Lap4 (GeneID 326188),DRSC25977,3.6,4.61,6560,6186,inactive
Dscam2 (GeneID 38788),DRSC10198,2.27,1.02,6246,6159,inactive
Dscam2 (GeneID 38788),DRSC11018,0.7,0.35,5889,5697,inactive
Dscam2 (GeneID 38788),DRSC11019,2.43,1.11,5929,6041,inactive
Dscam2 (GeneID 38788),DRSC22526,12.5,1.58,6150,6577,inactive
Dscam2 (GeneID 38788),DRSC28220,11.3,11.4,4488,1614,inactive
CG13300 (GeneID 38730),DRSC09974,1.46,3.79,6033,5178,inactive
CG13300 (GeneID 38730),DRSC25081,1.8,2.71,6619,6446,inactive
CG9497 (GeneID 33884),DRSC03234,1.03,2.82,6509,5683,inactive
CG9497 (GeneID 33884),DRSC25510,12.8,3.14,6646,6022,inactive
CG8508 (GeneID 41620),DRSC16436,10.7,12.2,5295,5205,inactive
CG32413 (GeneID 318018),DRSC21591,29.7,9.94,6343,6819,inactive
tea (GeneID 36027),DRSC06110,23.9,23.1,4271,4500,inactive
tea (GeneID 36027),DRSC06236,11.5,2.64,4851,5750,inactive
CG33331 + CG33332,DRSC22928,1.43,10.3,6299,4777,inactive
CG33331 + CG33332,DRSC29492,,,281,783,inactive
SoxN (GeneID 44275),DRSC03440,8.3,3.73,6207,6300,inactive
SoxN (GeneID 44275),DRSC24984,3.11,2.51,5908,6184,inactive

In a second layout: results already given
Dscam2 (GeneID 38788) [DRSC10198]
- infection score, replicate 1: 2.27
- infection score, replicate 2: 1.02
- cell count, replicate 1: 6246
- cell count, replicate 2: 6159
- outcome: inactive

Dscam2 (GeneID 38788) [DRSC11018]
- infection score, replicate 1: 0.7
- infection score, replicate 2: 0.35
- cell count, replicate 1: 5889
- cell count, replicate 2: 5697
- outcome: inactive

Dscam2 (GeneID 38788) [DRSC11019]
- infection score, replicate 1: 2.43
- infection score, replicate 2: 1.11
- cell count, replicate 1: 5929
- cell count, replicate 2: 6041
- outcome: inactive

Dscam2 (GeneID 38788) [DRSC22526]
- infection score, replicate 1: 12.5
- infection score, replicate 2: 1.58
- cell count, replicate 1: 6150
- cell count, replicate 2: 6577
- outcome: inactive

Dscam2 (GeneID 38788) [DRSC28220]
- infection score, replicate 1: 11.3
- infection score, replicate 2: 11.4
- cell count, replicate 1: 4488
- cell count, replicate 2: 1614
- outcome: inactive

CG13300 (GeneID 38730) [DRSC09974]
- infection score, replicate 1: 1.46
- infection score, replicate 2: 3.79
- cell count, replicate 1: 6033
- cell count, replicate 2: 5178
- outcome: inactive

CG13300 (GeneID 38730) [DRSC25081]
- infection score, replicate 1: 1.8
- infection score, replicate 2: 2.71
- cell count, replicate 1: 6619
- cell count, replicate 2: 6446
- outcome: inactive

CG9497 (GeneID 33884) [DRSC03234]
- infection score, replicate 1: 1.03
- infection score, replicate 2: 2.82
- cell count, replicate 1: 6509
- cell count, replicate 2: 5683
- outcome: inactive

CG9497 (GeneID 33884) [DRSC25510]
- infection score, replicate 1: 12.8
- infection score, replicate 2: 3.14
- cell count, replicate 1: 6646
- cell count, replicate 2: 6022
- outcome: inactive

Next results:
gene,amplicon,"infection score, replicate 1","infection score, replicate 2","cell count, replicate 1","cell count, replicate 2",outcome
CG5355 (GeneID 34421),DRSC02844,4.69,1.42,6632,6486,inactive
Idh (GeneID 44291),DRSC10779,9.33,11.8,5486,5101,inactive
CG10516 (GeneID 39738),DRSC09738,0.7,3.23,6300,6341,inactive
side (GeneID 43300),DRSC14523,7.88,18.2,3174,6142,inactive
side (GeneID 43300),DRSC14716,,6.48,328,7162,inactive
side (GeneID 43300),DRSC14717,7.67,3.39,6465,855,inactive
side (GeneID 43300),DRSC14718,1.71,5.29,6770,3385,inactive
side (GeneID 43300),DRSC14721,2.05,6.82,6869,6397,inactive
pre-mod(mdg4)-Z + mod(mdg4) + pre-mod(mdg4)-T,DRSC13477,0.12,0.17,6528,6568,inactive
pre-mod(mdg4)-Z + mod(mdg4) + pre-mod(mdg4)-T,DRSC17001,1.72,0.83,6094,6143,inactive
Alg12 (GeneID 41191),DRSC16416,2.6,1.24,5999,6228,inactive
GC1 (GeneID 41448),DRSC15322,9.74,24.5,6929,3688,inactive
GC1 (GeneID 41448),DRSC25627,3.92,1.49,6150,5978,inactive
CG7882 (GeneID 35520),DRSC04899,8.6,8.16,7024,6800,inactive
Zmynd8 (GeneID 43730),DRSC15310,1.1,4.54,6162,6844,inactive
Zmynd8 (GeneID 43730),DRSC29554,31.7,15.7,5165,3470,inactive
CG4293 (GeneID 31001),DRSC18557,11.8,5.68,6785,7273,inactive
CG3702 (GeneID 33628),DRSC00628,1.29,5.1,6255,5806,inactive
h-cup (GeneID 41879),DRSC15973,16.1,12.6,6106,6226,inactive
h-cup (GeneID 41879),DRSC24713,10.3,14.6,6260,6227,inactive
kek5 (GeneID 32930),DRSC19438,1.36,1.15,4772,5988,inactive
kek5 (GeneID 32930),DRSC24470,1.49,7.54,5825,5874,inactive
p115 (GeneID 31698),DRSC18813,16.5,20.6,5859,4963,inactive
CG13631 (GeneID 50073),DRSC23168,0.49,11,5462,2877,inactive
CG13631 (GeneID 50073),DRSC28727,9.33,10.1,5115,4206,inactive
CG12902 (GeneID 36092),DRSC06217,2.63,17.4,6575,5691,inactive
CG13360 (GeneID 31025),DRSC18536,4.43,15.4,6114,6227,inactive
CG13360 (GeneID 31025),DRSC28479,2.19,,2009,403,inactive
CG8833 (GeneID 39535),DRSC11050,10.4,14.9,5798,5949,inactive
Rsf1 (GeneID 34370),DRSC03423,8.98,11.1,5801,5930,inactive
Rsf1 (GeneID 34370),DRSC21953,3.39,1.43,6369,6354,inactive
Rsf1 (GeneID 34370),DRSC27444,37,10.8,4989,6973,inactive
CG14111 (GeneID 39497),DRSC10114,3.54,4.72,6124,6718,inactive
CG14111 (GeneID 39497),DRSC27551,30.5,9.93,4991,6768,inactive
Cpr73D (GeneID 39897),DRSC11084,0.19,1.1,7384,6849,inactive
Cpr73D (GeneID 39897),DRSC26591,1.81,2.13,6344,6371,inactive
Zasp66 (GeneID 38988),DRSC08932,1.92,0.37,6151,6225,inactive
Zasp66 (GeneID 38988),DRSC10631,13.5,15.7,3802,4397,inactive
Zasp66 (GeneID 38988),DRSC10632,7.75,2.67,5481,6282,inactive
